Compound potency records, mixed from different reports. Data source: NIAID ChemDB in PubChem.

All rows: whole-cell or culture tests; organism: Mycobacterium fortuitum; measure: MIC

An empty or dashed field is not shown.

CCC(C)(C)c1ccc(/C=N/N=C(\N)c2ccccn2)cc1 ; result: 6–12.5 µg/mL
CCOc1c(N2CCC(N)C2)c(F)cc2c(=O)c(C(=O)O)cn(C3CC3)c12 ; strain or isolate: ATCC 6841 ; result: 0.06 µg/mL
CCn1cc(C(=O)O)c(=O)c2cc(F)c(N3CCNCC3)nc21 ; strain or isolate: 10 strains ; result: 8 µg/mL
CC(C)(C)c1ccc(/C=N/N=C(\N)c2ccccn2)cc1 ; result: 6–12.5 µg/mL
CN1C(=O)C(=O)N(C)C1=S ; strain or isolate: CA10 ; result: 25 µg/mL
CC1COc2c(N3CCN(C)CC3)c(F)cc3c(=O)c(C(=O)O)cn1c23 ; strain or isolate: 10 strains ; result: 1 µg/mL
CC1(C)NC(=S)NC1=O ; strain or isolate: CA10 ; result: >100 µg/mL
NNC(=O)c1ccc(N)cc1O ; result: ≥1000 µg/mL
CC1CN(c2c(F)cc3c(=O)c(C(=O)O)cn(C4CC4)c3c2Cl)CC(C)N1 ; strain or isolate: ATCC 6841 ; result: 0.13 µg/mL
CCN1C(=O)C(=O)N(CC)C1=S ; strain or isolate: CA10 ; result: >100 µg/mL
CN1CCN(c2c(F)cc3c(=O)c(C(=O)O)cn(CCF)c3c2F)CC1 ; strain or isolate: 10 strains ; result: 8 µg/mL
CN1C(=S)NC(C)(C)C1=S ; strain or isolate: CA10 ; result: >100 µg/mL
CCN1CCN(c2nc3c(cc2F)c(=O)c(C(=O)O)cn3C(C)(C)C)CC1 ; strain or isolate: ATCC 6841 ; result: 0.13 µg/mL
N/C(=N\N=C\c1ccccc1Sc1ccc(Cl)cc1)c1ccccn1 ; result: 12.5–25 µg/mL
NC1CCN(c2nc3c(cc2F)c(=O)c(C(=O)O)cn3C2CC2)C1 ; strain or isolate: ATCC 6841 ; result: 0.06 µg/mL
N/C(=N\N=C\c1cccc2ccccc12)c1ccccn1 ; result: 12.5–25 µg/mL

Repeating the first 2 entries:

structure | strain or isolate | result
CCC(C)(C)c1ccc(/C=N/N=C(\N)c2ccccn2)cc1 | - | 6–12.5 µg/mL
CCOc1c(N2CCC(N)C2)c(F)cc2c(=O)c(C(=O)O)cn(C3CC3)c12 | ATCC 6841 | 0.06 µg/mL

a–b is a range or a potency band. Conditions beyond the fields shown may differ between rows.